# Measured values from patent US7423058B2, “Inhibitors of hepatitis C virus NS3 protease” (Schering Corporation, priority 2004, dated 2008).
# Protein sequences, listed by entry. Tags and fused reporters are not part of them. Residues count along the entry.
# UniProt P27958, 1027-1657 limits assumed: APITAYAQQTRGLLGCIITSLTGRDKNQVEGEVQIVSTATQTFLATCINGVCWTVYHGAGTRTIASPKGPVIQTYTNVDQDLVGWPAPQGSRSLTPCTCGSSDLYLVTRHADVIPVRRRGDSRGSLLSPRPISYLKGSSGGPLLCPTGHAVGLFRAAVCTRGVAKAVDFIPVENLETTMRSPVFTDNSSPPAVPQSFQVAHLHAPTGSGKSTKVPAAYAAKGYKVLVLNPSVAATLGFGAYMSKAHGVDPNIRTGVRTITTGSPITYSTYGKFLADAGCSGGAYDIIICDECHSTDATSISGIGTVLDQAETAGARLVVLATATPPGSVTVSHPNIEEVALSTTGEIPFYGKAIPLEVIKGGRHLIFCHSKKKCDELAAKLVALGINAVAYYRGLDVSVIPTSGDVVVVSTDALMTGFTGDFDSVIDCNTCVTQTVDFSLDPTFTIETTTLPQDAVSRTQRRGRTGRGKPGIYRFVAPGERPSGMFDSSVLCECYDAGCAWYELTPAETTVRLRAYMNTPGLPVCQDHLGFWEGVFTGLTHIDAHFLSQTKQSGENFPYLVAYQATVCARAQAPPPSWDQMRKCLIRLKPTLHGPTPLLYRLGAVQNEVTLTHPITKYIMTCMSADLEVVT
# UniProt P27958, 1658-1711 partner limits assumed: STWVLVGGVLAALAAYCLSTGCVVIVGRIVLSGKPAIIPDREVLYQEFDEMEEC
# pKi: −log10 of the molar value. Structures were worked out from names or drawings and are uncertain.
# Biological target: Recombinant heterodimeric HCV NS3/NS4A protease (strain 1a) (Hepatitis C virus genotype 1a, UniProt P27958)
# Assay: Spectrophotometric assay for HCV protease inhibitory activity (chromogenic ester substrates)
# Conditions: read-out: Ki* Range; Table 4: Carboxylic Acids
# Description: The present invention relates to novel HCV protease inhibitors. This utility can be manifested in their ability to inhibit the HCV NS2/NS4a serine protease.
# Assay for HCV Protease Inhibitory Activity:
# Spectrophotometric Assay: Spectrophotometric assay for the HCV serine protease can be performed on the inventive compounds by following the procedure described by R. Zhang et al, Analytical Biochemistry, 270 (1999) 268-275, the disclosure of which is incorporated herein by reference. The assay based on the proteolysis of chromogenic ester substrates is suitable for the continuous monitoring of HCV NS3 protease activity. […]
# Materials: Chemical reagents for assay related buffers are obtained from Sigma Chemical Company (St. Louis, Mo.). […] A Spectramax Plus microtiter plate reader with monochrometer is obtained from Molecular Devices (Sunnyvale, Calif.).
# Enzyme Preparation: Recombinant heterodimeric HCV NS3/NS4A protease (strain 1a) is prepared by using the procedures published previously (D. L. Sali et al, Biochemistry, 37 (1998) 3392-3401). Protein concentrations are determined by the Biorad dye method using recombinant HCV protease standards previously quantified by amino acid analysis. […]
structure (smiles),measurement,value
CC(C)(C)[C@H](NC(=O)NC1(C(=O)O)CCCCC1)C(=O)N1C[C@H]2[C@@H]([C@H]1C(=O)NC(CC1CC1)C(=O)C(N)=O)C2(C)C (stereo partly shown),pKi,> 7.12
